Anti-infective test results gathered from many reports (values: NIAID ChemDB through PubChem).

Common to all: host cell toxicity; cell line: VERO; endpoint: CC50

Lines come from different laboratories, so protocols vary. CCn: concentration that lowers growth or viability of the cells by n%.

| SMILES | result |
|---|---|
| O=c1[nH]c(=O)n([C@H]2C[C@H](O)[C@@H](CO)O2)cc1I | >1000 µM |
| CC[C@@H](C(C)C)[C@H](O)[C@@H](O)[C@@H](C)[C@H]1CC[C@H]2[C@@H]3CC(=O)[C@@]4(O)C[C@@H](Br)CC[C@]4(C)[C@H]3CC[C@]12C | 277 µM |
| Nc1nccc2c1ncn2[C@@H]1C=C(CO)[C@@H](O)[C@H]1O | 0.3 µg/mL |
| CC[C@@H](C(C)C)[C@H](O)[C@@H](O)[C@@H](C)[C@H]1CC[C@H]2[C@@H]3CC(=O)[C@@]4(O)C[C@H](O)[C@H](O)C[C@]4(C)[C@H]3CC[C@]12C | 364 µM |
| N=c1c2ncn([C@@H]3O[C@H](CO)[C@@H](O)[C@H]3O)c2ncn1OCc1cc(F)cc(F)c1 | 75 µg/mL |
| N[C@H]1C(=O)N[C@@H]2Cc3ccc(c(Cl)c3)Oc3cc4cc(c3O)Oc3ccc(cc3Cl)[C@@H](O)[C@@H]3NC(=O)[C@H](NC(=O)[C@@H]4NC(=O)[C@@H](NC2=O)c2cc(O)cc(c2)Oc2cc1ccc2O)c1ccc(O)c(c1)-c1c(O)cc(O)cc1[C@@H](C(=O)C1NCCC2CCCCC21)NC3=O | >100 µM |
| CC[C@@H](C(C)C)[C@H](O)[C@@H](O)[C@@H](C)[C@H]1CC[C@H]2[C@@H]3CC(=O)[C@H]4C[C@@H](OC(C)=O)CC[C@]4(C)[C@H]3CC[C@]12C | 139 µM |
| O=c1[nH]cnc2c1ncn2[C@@H]1C=C(CO)[C@@H](O)[C@H]1O | >100 µg/mL |
| O=C(N/N=C/c1ccc(Cl)cc1Cl)c1ccccc1SSc1ccccc1C(=O)N/N=C/c1ccc(Cl)cc1Cl | 363.2 µM |
| CO[C@H]1[C@@H](O)[C@H](n2cnc3c(N)ncnc32)O[C@@H]1CO | 400 µM |
| O=c1cnn([C@@H]2O[C@H](CO)[C@@H](O)[C@H]2O)c(=S)[nH]1 | >100 µg/mL |
| NC(=O)c1csc([C@@H]2O[C@H](CO)[C@@H](O)[C@H]2O)n1 | 90 µg/mL |
| CC[C@@H](C(C)C)[C@@H](O)[C@H](O)[C@@H](C)[C@H]1CC[C@H]2[C@@H]3CC(=O)[C@@]4(O)C[C@H](O)[C@H](O)C[C@]4(C)[C@H]3CC[C@]12C | 40 µM |
| CC(=O)OC[C@H]1O[C@@H](n2ncc(=O)[nH]c2=O)[C@H](OC(C)=O)[C@@H]1OC(C)=O | 42 µg/mL |
| Cc1cn([C@@H]2O[C@H](CO)[C@@H](O)[C@@H]2O)c(=O)[nH]c1=O | >1000 µM |
| CC1(C)OC2C(O1)[C@@H](COS(=O)(=O)NC(=O)OC1O[C@H](COCc3ccccc3)[C@@H](OCc3ccccc3)[C@H](OCc3ccccc3)[C@H]1OCc1ccccc1)O[C@H]2n1ncc(=O)[nH]c1=O | >319 µg/mL |
| Nc1nc(=O)n([C@@H]2O[C@H](CO)[C@@H](O)[C@@H]2O)cc1Cl | >1000 µM |
| O=S1(=O)C[C@H](O)[C@H](O)CS1 | >400 µM |
| CCC(C)[C@H](NC(=O)OCc1ccccc1)C(=O)NC(CCC(=O)N(C)C)C(=O)CF | >100 µM |
| Nc1ccn(C[C@@H](CO)OCP(=O)(O)O)c(=O)n1 | >100 µg/mL |
| CC[C@@H](C(C)C)[C@@H](O)[C@H](O)[C@@H](C)[C@H]1CC[C@H]2[C@@H]3CC(=O)[C@H]4C[C@H](O)[C@H](O)C[C@]4(C)[C@H]3CC[C@]12C | 209 µM |
| Nc1nc(=O)n([C@@H]2C=C(CO)[C@@H](O)[C@H]2O)cc1F | >100 µg/mL |
| Nc1ncnc2c1nc(Br)n2[C@@H]1O[C@H](CO)[C@@H](O)[C@H]1O | 415 µM |
| Cn1c(O)c(N=NC(N)=S)c2ccccc21 | >100 µg/mL |
| CC(=O)OC[C@H]1O[C@@H](n2ncc(=S)[nH]c2=S)C(OC(C)=O)C1OC(C)=O | 500 µg/mL |
| Nc1ncnc2c1ncn2C[C@@H](CO)OCP(=O)(O)O | >100 µg/mL |
| CN(C)C(=O)CCC(NC(=O)CNC(=O)OCc1ccccc1)C(=O)CF | >100 µM |
| CC(=O)OC[C@H]1O[C@@H](n2c(C(N)=S)cc(=O)[nH]c2=O)C(OC(C)=O)C1OC(C)=O | 940 µg/mL |
| CC[C@@H](C(C)C)[C@@H](O)[C@H](O)[C@@H](C)[C@H]1CC[C@H]2[C@@H]3CC(=O)[C@@]4(O)C[C@@H](Br)CC[C@]4(C)[C@H]3CC[C@]12C | 23 µM |

The last 3 rows once more:

SMILES | result
CN(C)C(=O)CCC(NC(=O)CNC(=O)OCc1ccccc1)C(=O)CF | >100 µM
CC(=O)OC[C@H]1O[C@@H](n2c(C(N)=S)cc(=O)[nH]c2=O)C(OC(C)=O)C1OC(C)=O | 940 µg/mL
CC[C@@H](C(C)C)[C@@H](O)[C@H](O)[C@@H](C)[C@H]1CC[C@H]2[C@@H]3CC(=O)[C@@]4(O)C[C@@H](Br)CC[C@]4(C)[C@H]3CC[C@]12C | 23 µM